# Measured values: publication PMC4624681, “TIM-1 acts a dual-attachment receptor for Ebolavirus by interacting directly with viral GP and the PS on the viral envelope” (2015)
# Biological target: T1, Ig V domain of human T-cell immunoglobulin and mucin domain protein 1 (hTIM-1), human, Q96D42 22-127
# T1 sequence: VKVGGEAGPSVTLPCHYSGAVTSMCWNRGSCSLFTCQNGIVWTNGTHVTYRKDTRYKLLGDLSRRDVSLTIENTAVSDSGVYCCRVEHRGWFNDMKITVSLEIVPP
# Assay: SPR; deglycosylated GP
substance,measurement,value
deglycosylated Zaire GP (1–320),Kd,48.5 µM
